In patent US10245246B2, “β-substituted β-amino acids and analogs as chemotherapeutic agents” (QUADRIGA BIOSCIENCES, INC., priority 2014, dated 2019):

System: LLCPK cells conditionally expressing hLAT1
Experiment: LAT1-specific in vitro cytotoxicity, modified clonogenic assay
Type: cell-based
Settings: 3 μM test compound for 30 min, proliferation 7-10 days

Cc1cc(N(CCCl)CCCl)ccc1C(N)CC(=O)O (stereo not shown)
percent surviving cells in cells expressing LAT1 compared to cells not expressing LAT1 (reduction): about the same
